# Measured values: PMC9642902
# pKd: −log10 of the molar value. Several values for one entry are separate records, joined by “and”; a condition that tells them apart may be missing. Equal values may be shown once. Read-outs that look alike come from different tables or passages of the source.
# Columns and labels:
# Assay in all cases: ITC
# [1] = biological target: Mirabilis jalapa ATG8-I (Mirabilis jalapa)
# [2] = biological target: Mirabilis jalapa ATG8-III (Mirabilis jalapa)
# [3] = biological target: Mirabilis jalapa ATG8-I (Mirabilis jalapa); remark: listed apart in the source
# [4] = biological target: potato ATG8-2.2 (potato)
substance,measurement,setting,value
PiPexRD54 AIM peptide,pKd,[1],6.63 and 6.59 and 6.62
same,stoichiometry N,[1],1.06 and 1.44 and 1.27
same,pKd,[2],6.75 and 7.18 and 6.61
same,stoichiometry N,[2],1.45 and 1.35 and 1.51
same,pKd,[3],6.60 and 6.63
PmPexRD54 AIM peptide,pKd,[1],4.81 and 5.26
same,stoichiometry N,[1],1.32 and 1
same,pKd,[2],4.69 and 4.93 and 4.11
same,stoichiometry N,[2],1.23 and 1
same,pKd,[4],5.35 and 5.52 and 5.32
same,stoichiometry N,[4],1.23 and 1.35 and 1.27
